Pooled drug test results. Numbers come from NIAID ChemDB, via PubChem.

Shared fields: whole-cell or culture tests; agent: Herpes simplex virus 2

Two numbers with a dash give a range or band. Rows are shuffled and stem from different studies. An empty or dashed field is not shown. ECn is the concentration giving n% inhibition of infection, replication or growth.

compound | cells | read by | strain | read-out | result
O=c1[nH]c(=O)n([C@@H]2O[C@H](CO)[C@@H](O)[C@@H]2O)cc1/C=C/Br | - | - | - | MIC | 100 µg/mL
COc1ncnc2c1cnn2Cc1cn(CCCCO)nn1 | E6SM | - | G | EC50 | >400 µg/mL
O=c1[nH]c(=O)n([C@H]2C[C@H](O)[C@@H](CO)O2)cc1CCCl | PRK | cytopathic effect | G | EC50 | <2.1 µg/mL
O=c1[nH]c(=O)n([C@H]2O[C@@H](CO)[C@H](O)[C@@H]2O)cc1I | - | - | - | EC50 | >100 µM
CC(=O)OC[C@H]1[C@H](COC(C)=O)[C@@H](COC(C)=O)O[C@H]1n1cnc2c(N)ncnc21 | MEF | plaque count | E-196 | EC50 | 227 µM
CO[C@H](CO)[C@@H](O)CCn1cnc2c(=O)[nH]c(N)nc21 | E6SM | cytopathic effect | G | EC50 | >400 µg/mL
Nc1ccn([C@H]2O[C@@H](CO)[C@H](O)[C@H]2F)c(=O)n1 | VERO | plaque count | G-FAC-C1 | EC50 | 7.3 µM
CC=NC(=N)c1nc(-c2cccc(C)c2)n(C/C=C/c2ccccc2)n1 | E6SM | cytopathic effect | G | EC50 | >4 µg/mL
O=c1[nH]c(=O)n(C2CC(CO)[C@@H](O)C2)cc1/C=C/Br | PRK | cytopathic effect | G | EC50 | 7 µg/mL
Nc1ncnc2c1ncn2[C@@H]1O[C@H](CO)[C@](O)(C(F)(F)F)[C@H]1O | E6SM | cytopathic effect | G | EC50 | 400 µg/mL
CC=NC(=N)c1nc(-c2ccc(OC)cc2)n(Cc2ccccc2)n1 | E6SM | cytopathic effect | G | EC50 | >40 µg/mL
O=c1[nH]c(=O)n([C@H]2C[C@@H](CO)[C@H](O)C2)cc1I | PRK | cytopathic effect | G | EC50 | 70 µg/mL
Nc1ncnc2c1ncn2C[C@@H](CO)OCP(=O)(O)O | WI-38 | plaque count | 186 | EC50 | 2 µM
C=C(N=CC)c1nc(-c2ccccc2)n(C2O[C@H](CO)[C@@H](O)[C@H](O)[C@H]2O)n1 | E6SM | cytopathic effect | G | EC50 | >200 µg/mL
Nc1ccn(C[C@@H](CO)OCP(=O)(O)O)c(=O)n1 | HFF | plaque count | G | EC50 | 18 µM
Cc1cn([C@@H]2O[C@H](CO)[C@@H](O)[C@@H]2F)c(=O)[nH]c1=O | VERO | cytopathic effect | K979 | EC50 | <0.3 µg/mL
C=Cc1cn([C@@H]2O[C@H](CO)[C@@H](O)[C@@H]2O)c(=O)[nH]c1=O | - | - | - | MIC | 1 µg/mL
Cc1cn([C@@H]2O[C@H](COP(=O)(O)O)[C@@H](O)[C@H]2O)c(=O)nc1N | - | - | LYONS | EC50 | >400 µg/mL
O=C(O)P(=O)(O)O | VERO | plaque count | G-FIAC-C1 | EC50 | 66 µM
Nc1nc2c(ncn2COC2COP(=O)(O)OC2)c(=O)[nH]1 | VERO | cytopathic effect | - | EC50 | 50 µM
Nc1nc2c(ncn2COCCO)c(=O)[nH]1 | WI-38 | cytopathic effect | MS | EC50 | 0.31 µg/mL
Nc1ccn(C[C@H]2COP(=O)(O)CO2)c(=O)n1 | HFF | plaque count | SR | EC50 | 82.8 µM
Cc1cn([C@@H]2OC3COP(=O)(O)OC3[C@H]2O)c(=O)nc1N | - | - | G | EC50 | >400 µg/mL
C=C(N=CC)c1nc(-c2ccc(OC)cc2)n([C@@H]2O[C@H](CO)[C@@H](O)[C@H]2O)n1 | E6SM | cytopathic effect | G | EC50 | 300 µg/mL
CCCCc1cn([C@@H]2O[C@H](COP(=O)(O)O)[C@@H](O)[C@H]2O)c(=O)nc1N | - | - | G | EC50 | >400 µg/mL
O=c1[nH]c(=O)n([C@H]2C[C@H](O)[C@@H](CO)O2)cc1/C=C/Br | PRK | cytopathic effect | LYONS | EC50 | 7 µg/mL
Nc1ncnc2c1ncn2C[C@@H](CO)OCP(=O)(O)O | PRK | cytopathic effect | 196 | EC50 | 1–3 µg/mL
O=c1c2ncn(COC(CO)CO)c2[nH]c2nccn12 | - | cytopathic effect | 196 | EC50 | 2 µg/mL
[N-]=[N+]=Nc1cccc(/C=C/c2cn([C@H]3C[C@H](O)[C@@H](COP(=O)(O)O)O3)c(=O)[nH]c2=O)c1 | PRK | cytopathic effect | LYONS | EC50 | >200 µg/mL
O=c1ccn([C@@H]2O[C@H](CO)[C@@H](O)[C@@H]2F)c(=O)[nH]1 | VERO | plaque count | G-FIAU-C1 | EC50 | >200 µM
C=C(N=CC)c1nc(-c2ccc(C)cc2)n(C2O[C@H](CO)[C@@H](O)[C@H](O)[C@H]2O)n1 | E6SM | cytopathic effect | G | EC50 | >200 µg/mL
Nc1nc2c(ncn2CC(CO)CCO)c(=O)[nH]1 | VERO | plaque count | 72 | EC50 | 10 µM
CC=NC(=N)c1nc(-c2ccc(C)cc2)n(Cc2ccccc2)n1 | E6SM | cytopathic effect | G | EC50 | >4 µg/mL
CCCc1cn([C@H]2C[C@H](O)[C@@H](COP(=O)(O)O)O2)c(=O)[nH]c1=O | PRK | cytopathic effect | G | EC50 | 5 µg/mL
CO[C@H](CO)[C@@H](O)CCn1cnc2c(N)ncnc21 | E6SM | cytopathic effect | 196 | EC50 | >400 µg/mL
Nc1ncnc2c1ncn2C[C@H](O)CO | PRK | cytopathic effect | G | EC50 | >400 µg/mL
Nc1nc2c(ncn2COC(CO)CO)c(=O)[nH]1 | VERO | cytopathic effect | K979 | EC50 | <0.3 µg/mL
O=c1[nH]c(=O)n([C@H]2C[C@H](O)[C@@H](COP(=O)(O)O)O2)cc1CCc1ccccc1 | PRK | cytopathic effect | LYONS | EC50 | 15 µg/mL
CSCc1cn([C@H]2C[C@H](O)[C@@H](CO)O2)c(=O)[nH]c1=O | PRK | cytopathic effect | VCX301 | EC50 | 4 µg/mL
NC(=O)c1cncc([C@H]2O[C@H](CO)[C@H](O)[C@@H]2O)c1 | E6SM | cytopathic effect | G | EC50 | ≥100 µg/mL
Cc1cn([C@@H]2O[C@H](CO)[C@](O)(C(F)(F)F)[C@H]2O)c(=O)[nH]c1=O | E6SM | cytopathic effect | G | EC50 | 100 µg/mL
O=C(O[C@@H]1[C@@H](c2c(O)cc(O)c3c2O[C@H](c2cc(O)c(O)c(O)c2)[C@H](OC(=O)c2cc(O)c(O)c(O)c2)C3)c2c(O)cc(O)cc2O[C@@H]1c1cc(O)c(O)c(O)c1)c1cc(O)c(O)c(O)c1 | VERO | plaque count | 196 | EC50 | 0.4 µM
CO[C@H](CO)[C@@H](O)CCn1ccc(N)nc1=O | E6SM | cytopathic effect | 196 | EC50 | >400 µg/mL
Nc1ncnc2c1ncn2[C@@H]1C[C@H](CO)[C@@H](O)[C@@H]1O | VERO | plaque count | G-FIAC-C1 | EC50 | 85 µM
CCCCCCCCCCCCCCCCOP1(=O)CO[C@@H](Cn2ccc(N)nc2=O)CO1 | HFF | plaque count | SR | EC50 | >1 µM
[N-]=[N+]=NCc1cn([C@H]2C[C@H](O)[C@@H](CO)O2)c(=O)[nH]c1=O | PRK | cytopathic effect | 196 | EC50 | 10 µg/mL
CCc1cn([C@H]2C[C@H](O)[C@@H](CO)O2)c(=O)[nH]c1=O | PRK | cytopathic effect | 196 | EC50 | 4 µg/mL
NC(=O)c1cncc([C@@H]2O[C@H](CO)[C@@H](O)[C@@H]2O)c1 | E6SM | cytopathic effect | G | EC50 | ≥100 µg/mL
O=c1[nH]c(=O)n([C@H]2C[C@H](O)[C@@H](CO)O2)cc1I | PRK | cytopathic effect | VCX210 | EC50 | 0.3 µg/mL
Nc1ncnc2c1cnn2Cc1cn(CCCCO)nn1 | E6SM | - | G | EC50 | >400 µg/mL
N#Cc1cncc([C@H]2O[C@H](CO)[C@@H](O)[C@@H]2O)c1 | E6SM | cytopathic effect | G | EC50 | ≥100 µg/mL
O=Cc1cn([C@H]2C[C@H](O)[C@@H](CO)O2)c(=O)[nH]c1=O | PRK | cytopathic effect | VDX192 | EC50 | 0.4 µg/mL
COC(=O)[C@H](C)NP(=O)(OCC1C/C1=C/n1cnc2c(N)ncnc21)Oc1ccccc1 | VERO | plaque count | - | EC50 | >1 µM
Nc1ccn([C@H]2CC[C@H](CO)O2)c(=S)n1 | - | - | - | EC50 | >100 µM
Nc1nc2c(ncn2C/C=C\CO)c(=O)[nH]1 | BHK | plaque count | 91075 | EC50 | 26 µM
Nc1nc2c(ncn2CC[C@@H](O)CO)c(=O)[nH]1 | VERO | plaque count | B4327 | EC50 | 11 µM
OCCCCn1cc(Cn2ncc3c(NCc4ccccc4)ncnc32)nn1 | E6SM | - | G | EC50 | >400 µg/mL
CCCCCCCC/C=C\CCCCCCCOCCOP1(=O)CO[C@@H](Cn2ccc(N)nc2=O)CO1 | HFF | plaque count | SR | EC50 | 0.04 µM
Cc1nc(N(C)C(=O)Cc2ccc(-c3ccccn3)cc2)sc1S(N)(=O)=O | HEF | plaque count | 2 (G) | EC90 | 0.91 µM
CCCCC(=O)OC[C@H]1O[C@@H](n2cnc3c(N)ncnc32)[C@@H](O)[C@@H]1O | MEF | plaque count | Clinical isolate HEETER | EC50 | 20 µM
CCCCCCCCCCCCCCCCCCOCCCOP1(=O)CO[C@@H](Cn2ccc(N)nc2=O)CO1 | HFF | plaque count | MS | EC50 | 0.2 µM
O=c1[nH]c(=O)n([C@H]2C[C@H](O)[C@@H](CO)O2)cc1I | - | - | - | MIC | 3.2 µg/mL
O=c1[nH]c(=O)n([C@@H]2C[C@H](CO)[C@@H](O)C2)cc1/C=C/Br | PRK | cytopathic effect | G | EC50 | 7 µg/mL
OC[C@H]1O[C@H](c2cncc(Br)c2)[C@@H](O)[C@H]1O | E6SM | cytopathic effect | G | EC50 | ≥100 µg/mL
Nc1nc2c(ncn2COCCO)c(=O)[nH]1 | VERO | plaque count | 72 | EC50 | 0.3 µM
O=c1[nH]c(=O)n([C@H]2CC[C@@H](CO)O2)cc1/C=C/Br | PRK | cytopathic effect | 196 | EC50 | 1.5 µg/mL
CC(C)c1cn([C@@H]2OC3COP(=O)(O)OC3[C@H]2O)c(=O)nc1N | - | - | LYONS | EC50 | >400 µg/mL
O=c1c2ncn(COCCO)c2[nH]c2ncc(CO)n12 | - | cytopathic effect | LYONS | EC50 | >3.2 µg/mL
CCCCc1cn([C@@H]2OC3COP(=O)(O)OC3[C@H]2O)c(=O)nc1N | - | - | LYONS | EC50 | >400 µg/mL
CO[C@H](CO)[C@@H](O)CCn1cc(C)c(=O)[nH]c1=O | E6SM | cytopathic effect | LYONS | EC50 | >400 µg/mL
CC(=O)OCCOCn1cnc2c(=O)n3cc(-c4ccc5ccccc5c4)[nH]c3nc21 | - | cytopathic effect | LYONS | EC50 | >16 µg/mL
O=c1[nH]c(=O)n([C@@H]2O[C@H](CO)[C@@H](O)[C@@H]2F)cc1I | VERO | plaque count | G | EC50 | 0.009 µM
O=c1c2ncn(COC(CO)CO)c2nc2[nH]c(-c3ccccc3)cn12 | - | cytopathic effect | 196 | EC50 | 0.02 µg/mL
Nc1ccn([C@@H]2CC[C@H](CO)O2)c(=S)n1 | - | - | - | EC50 | >100 µM
N#Cc1cncc([C@@H]2O[C@H](CO)[C@@H](O)[C@@H]2O)c1 | E6SM | cytopathic effect | G | EC50 | ≥100 µg/mL
O=c1c2ncn(COCCO)c2nc2[nH]c(-c3ccccc3)c(-c3ccc(C(c4ccccc4)c4ccccc4)cc3)n12 | - | cytopathic effect | G | EC50 | >16 µg/mL

A second listing of 5 rows from above:

{"compound": "C=C(N=CC)c1nc(-c2ccc(OC)cc2)n([C@@H]2O[C@H](CO)[C@@H](O)[C@H]2O)n1", "cells": "E6SM", "read by": "cytopathic effect", "strain": "G", "read-out": "EC50", "result": "300 µg/mL"}
{"compound": "Nc1ncnc2c1ncn2C[C@@H](CO)OCP(=O)(O)O", "cells": "WI-38", "read by": "plaque count", "strain": "186", "read-out": "EC50", "result": "2 µM"}
{"compound": "O=c1[nH]c(=O)n([C@@H]2O[C@H](CO)[C@@H](O)[C@@H]2O)cc1/C=C/Br", "read-out": "MIC", "result": "100 µg/mL"}
{"compound": "CCCCCCCC/C=C\\CCCCCCCOCCOP1(=O)CO[C@@H](Cn2ccc(N)nc2=O)CO1", "cells": "HFF", "read by": "plaque count", "strain": "SR", "read-out": "EC50", "result": "0.04 µM"}
{"compound": "O=Cc1cn([C@H]2C[C@H](O)[C@@H](CO)O2)c(=O)[nH]c1=O", "cells": "PRK", "read by": "cytopathic effect", "strain": "VDX192", "read-out": "EC50", "result": "0.4 µg/mL"}